Compound potency records, mixed from different reports. Data source: NIAID ChemDB in PubChem.

All rows: cytotoxicity tests; measure: CC50

Conditions beyond the fields shown may differ between rows. Blank or dashed fields: not listed here. CCn is the concentration with n% toxicity to the cells.

structure,cell line,read by,result
O=C(NN1C(=O)c2c(F)c(F)c(F)c(F)c2C1=O)c1ccc(-n2cccc2)cc1,Lung adenocarcinoma cells,MTT,261 µM
CCOC(=O)CCCCCOc1cccc(CNC(C)C)c1,BJ,,>20 µM
OC[C@H]1O[C@@H](n2ccc3c(-c4cccs4)nc(F)nc32)C(O)C1O,CCRF-CEM leukemia cells,MTT,38.4 µM
COc1ccc(/C=C2\S/C(=N/S(=O)(=O)c3ccc(Cl)cc3)NC2=O)cc1,Huh 5-2,MTS,71.07 µM
COc1cc(C)ccc1OCCOc1ccccc1F,BJ,,>20 µM
Cc1ccc(S(=O)(=O)/N=C2\NC(=O)/C(=C/c3cccnc3)S2)cc1,Huh 5-2,MTS,>140 µM
COc1cc(-c2nnnn2S(=O)(=O)c2ccc(C(C)(C)C)cc2)ccc1OCC(O)(Cn1cncn1)c1ccc(F)cc1F,CHO-K1,MTT,67.23 µg/mL
Cc1nc(N)nc2c1ccn2[C@@H]1O[C@H](CO)C(O)C1O,BJ fibroblasts,MTT,75.22 µM
CO/C=C(/C(=O)OC)[C@H](C)[C@H](/C=C/c1ccccc1)OC(C)=O,HeLa S3,,50 µg/mL
O=C(NN1C(=O)c2c(Cl)c(Cl)c(Cl)c(Cl)c2C1=O)c1ccc(-n2cccc2)cc1,Lung adenocarcinoma cells,MTT,255 µM
CCCCCCCCCCCCCCCC(=O)OC[C@H]1O[C@H](O[C@@H]2O[C@H](CO)[C@@H](O)[C@H](O)[C@H]2O)[C@@H](O)[C@@H](O)[C@@H]1O,TZM-b1,,52.51 µM
CCOC(=O)CCCCCOc1cccc(CN(C(=O)c2ccc(-c3cccc4ccccc34)cc2)C(C)C)c1,HepG2,,>20 µM
O=C1N/C(=N\S(=O)(=O)c2ccc(F)cc2)S/C1=C\c1ccccc1Cl,Huh 5-2,MTS,115 µM
CCOC(=O)CCCCCOc1cccc(CN(C(=O)c2ccc(-c3cccc(OC(C)C)c3)cc2)C(C)C)c1,RAJI,,>20 µM
COc1cc(-c2nnnn2S(=O)(=O)c2ccc(OC(F)(F)F)cc2)ccc1OCC(O)(Cn1cncn1)c1ccc(F)cc1F,CHO-K1,MTT,58.12 µg/mL
O=C(NN1C(=O)c2ccccc2C1=O)c1ccc(-n2cccc2)cc1,Lung adenocarcinoma cells,MTT,254 µM
CCCCCCCCCCCCCCCC(=O)OC[C@H]1O[C@H](O[C@@H]2O[C@H](CO)[C@H](O)[C@H](O)[C@H]2O)[C@@H](O)[C@@H](O)[C@@H]1O,TZM-b1,,>100 µM
CCC/C(=C/C(=O)OC)c1c(O)c2c(c3c1OC(C)(C)[C@H](O)[C@H]3O)O[C@H](C)[C@@H](C)[C@@H]2O,CV-1,,15 µg/mL
CCCCCCCCCCCCCCCC(=O)O[C@@H]1[C@H](O)[C@@H](O[C@@H]2O[C@H](CO)[C@H](O)[C@H](O)[C@H]2O)O[C@H](CO)[C@H]1O,TZM-b1,,75.99 µM
CC(C)N(Cc1cccc(OCCCCCC(=O)OC(=O)O)c1)C(=O)c1ccc(-c2ccsc2)cc1,HepG2,,>20 µM
c1ccc(-c2csc(-n3cccc3)n2)cc1,Lung adenocarcinoma cells,MTT,231 µM
O=C(Nc1cccc(F)c1)Nc1cccc(C2=NNC(=O)C23CCCCC3)c1,NHDF,,>31 µM
CCCc1cc(=O)oc2c3c(c4c(c12)OC(C)(C)[C@H](O)[C@H]4OC(=O)c1cccc(Cl)c1)O[C@H](C)[C@@H](C)C3=O,CV-1,,7 µg/mL
Cc1cc(Cl)ccc1NC(=O)Nc1cccc(-c2n[nH]c(=O)n2C(C)c2ccccc2)c1,NHDF,,21 µM
CCOC(=O)/C=C/[C@H](C[C@@H]1CCNC1=O)NC(=O)c1ccc2ccc(Br)cc2c1,H1-HELA,,>100 µM
CC(C)n1c(-c2cccc(NC(=O)Nc3cccc(Cl)c3)c2)n[nH]c1=O,NHDF,,20 µM
COc1cc2[nH]c3ccccc3c2cc1C=O,1A2,tetrazolium,680 µM
OC[C@H]1O[C@@H](n2ccc3c(-c4cccc5c4oc4ccccc45)nc(Cl)nc32)C(O)C1O,CEM-DNR leukemia cells,MTT,30.9 µM
Cc1ccc(C)n1-c1nc(-c2ccc([N+](=O)[O-])cc2)cs1,Lung adenocarcinoma cells,MTT,253 µM
CCOC(=O)CCCCCOc1cccc(CN(C(=O)c2ccc(-c3ccc4ccccc4c3)cc2)C(C)C)c1,RAJI,,>20 µM
Cc1cc(Cl)ccc1NC(=O)Nc1cc(Br)cc(C2=NNC(=O)C2(C)C)c1,NHDF,,>14 µM
O=[N+]([O-])c1ccc(-c2csc(-n3cccc3)n2)cc1,Lung adenocarcinoma cells,MTT,246 µM
OC[C@H]1O[C@@H](n2ccc3c(-c4cc5ccccc5o4)nc(F)nc32)C(O)C1O,CEM-DNR leukemia cells,MTT,37.7 µM
CO/C=C(/C(=O)OC)[C@H](C)C(=O)/C=C/c1ccccc1,HeLa S3,,25 µg/mL
OC[C@H]1O[C@@H](n2ccc3c(-c4cc5ccccc5o4)nc(Cl)nc32)C(O)C1O,CCRF-CEM leukemia cells,MTT,5.8 µM
CCCc1cc(=O)oc2c(C(=O)CC)c(O)cc(O)c12,CV-1,neutral red,20 µg/mL
CCOC(=O)CN1N=C(c2cccc(NC(=O)Nc3ccc(Cl)cc3C)c2)C(C)(C)C1=O,NHDF,,19.2 µM
OC[C@H]1O[C@@H](n2ccc3c(-c4ccco4)nc(F)nc32)C(O)C1O,CCRF-CEM leukemia cells,MTT,2.22 µM

Repeating the first 2 entries:

structure	cell line	read by	result
O=C(NN1C(=O)c2c(F)c(F)c(F)c(F)c2C1=O)c1ccc(-n2cccc2)cc1	Lung adenocarcinoma cells	MTT	261 µM
CCOC(=O)CCCCCOc1cccc(CNC(C)C)c1	BJ		>20 µM